Anti-infective test results gathered from many reports (values: NIAID ChemDB through PubChem).

All rows: growth or infection tests; organism: HIV-1; cells: MT-4; read-out: EC50

Lines come from different laboratories, so protocols vary.

compound,strain,changes,method,conditions,value
CCc1c(Cc2cc(C)cc(C)c2)n(COCCCc2ccccc2)c(=O)[nH]c1=O,A17,K103N/Y181C,MTT,,>43 µM
CN1c2ccccc2C2C1C=CC(=O)N2c1ccc([N+](=O)[O-])cc1,LAI,,cytopathic effect / MTT,,<1 µM
N#Cc1cc(Cl)cc(Oc2c(Br)ccc(CC(=O)Nc3ccc(S(N)(=O)=O)cc3Cl)c2F)c1,,L100I/K103N,,,0.0009 µM
COP(=O)(c1cc(C)cc(CCC#N)c1)c1c(C(N)=O)[nH]c2ccc(Cl)cc12,NL4-3,,p24 / ELISA,,0.0017 µM
Cc1nc2c(c(C)c(C)n2Cc2ccccc2)c(-c2ccc(Cl)cc2)c1C(OC(C)(C)C)C(=O)O,IIIB,,MTT,,0.692 µM
CCc1c(Cc2ccc(OC)c(OC)c2)n(COCc2ccccc2)c(=O)[nH]c1=O,EFVR,K103R/V179D/P225H,MTT,,>80 µM
Cn1c2ccccc2c2c1cc(C#N)c(=O)n2-c1ccc([N+](=O)[O-])cc1,F,RT-Y188L,cytopathic effect / MTT,,0.04 µM
Cc1cc(/C=C/C#N)cc(C)c1Oc1nc(NC2CCN(Cc3ccccc3F)CC2)nc2ccsc12,IIIB,NNRTI-resistant (RT L100I),MTT,,0.0304 µM
CC(C)CN(C[C@@H](O)[C@H](Cc1ccccc1)NC(=O)O[C@H]1CO[C@H]2OCC[C@H]21)S(=O)(=O)c1ccc2nc(N)n(C)c2c1,LAI WT,,cytopathic effect / MTT,,0.251 µM
Cc1cc(C#N)cc(C)c1Oc1nc(NC2CCC(NCc3ccc(S(C)(=O)=O)cc3)CC2)nc2ccsc12,IIIB,NNRTI-resistant (RT Y181C),MTT,,>75.2 µM
CCC(C)[C@@H](C(=O)N[C@@H](Cc1ccccc1)[C@H](O)CN(CC(C)C)S(=O)(=O)c1ccc(/C=N/O)cc1)N1CCN(Cc2ccc(C)nc2)C1=O,A17 (LPV-resistant),PR-L10F V32I M46I I47V Q68E I84V,cytopathic effect / MTT,,0.013 µM
Cc1nc2ccccc2c(-c2cc(F)c3c(c2C)CCCO3)c1[C@H](OC(C)(C)C)C(=O)O,NL4-3,,luminescence,,0.019 µM
CCc1c(Cc2ccccc2C)n(COCC#Cc2ccc(NC(=O)C(F)(F)F)cc2)c(=O)[nH]c1=O,IIIB,K103N + Y181C,MTT,,>45 µM
CCC(C)[C@@H](C(=O)N[C@@H](Cc1ccccc1)[C@H](O)CN(CC(C)C)S(=O)(=O)c1ccc(/C=N/O)cc1)N1CCN(Cc2cccnc2C)C1=O,,,cytopathic effect / MTT,50% human serum,0.016 µM
CCOC(=O)c1ccc(CN2CCC(Nc3nc(Oc4c(C)cc(/C=C/C#N)cc4C)c4sccc4n3)CC2)cc1,IIIB,NNRTI-resistant (RT E138K),MTT,,0.0374 µM
CCC(C)[C@@H](C(=O)N[C@@H](Cc1ccccc1)[C@H](O)CN(CC(C)C)S(=O)(=O)c1ccc(/C=N/O)cc1)N1CCN(Cc2cccc(C)n2)C1=O,,,cytopathic effect / MTT,,0.002 µM
Cc1ccc(CN2CCC(Nc3nc(Oc4c(C)cc(/C=C/C#N)cc4C)c4sccc4n3)CC2)cc1,IIIB,NNRTI-resistant (RT F227L V106A),MTT,,0.129 µM
CCc1c(Cc2ccc(OC)c(OC)c2)n(COCCCc2ccccc2)c(=O)[nH]c1=O,A17,K103N/Y181C,MTT,,>38 µM
CCC(C)[C@@H](C(=O)N[C@@H](Cc1ccccc1)[C@H](O)CN(CC(C)C)S(=O)(=O)c1ccc(/C=N/O)cc1)N1CCN(Cc2cccnc2)C1=O,,,cytopathic effect / MTT,,0.004 µM
CCc1c(Cc2cc(C)cc(C)c2)n(COCC#Cc2ccccc2C(F)(F)F)c(=O)[nH]c1=O,IIIB,WT,MTT,,0.06 µM
COC(=O)c1ccc(CN2CCC(Nc3nc(Oc4c(C)cc(C#N)cc4C)c4ccsc4n3)CC2)cc1,IIIB,NNRTI-resistant (RT Y188L),MTT,,0.158 µM
COc1ccc(-c2nc(-c3ccc(N4C(=O)C=CC5C4c4ccccc4N5C)cc3)no2)cc1,LAI,,cytopathic effect / MTT,,1–32 µM
CCn1c(C)c(C)c2c(-c3ccc(Cl)cc3)c([C@H](OC(C)(C)C)C(=O)O)c(C)nc21,IIIB,,MTT,,0.00653 µM
CC(C)CN(C[C@@H](O)[C@H](Cc1ccccc1)NC(=O)O[C@H]1CO[C@H]2OCC[C@H]21)S(=O)(=O)c1ccc2nc(COC(=O)O[C@H]3CO[C@H]4OCC[C@H]43)[nH]c2c1,LAI WT,,cytopathic effect / MTT,,1.585 µM
C=CCn1cc(COCn2c(Cc3cc(C)cc(C)c3)c(CC)c(=O)[nH]c2=O)nn1,IIIB,K103N + Y181C,MTT,,21 µM
CCOCn1c(Cc2ccccc2)c(C(C)C)c(=O)[nH]c1=O,A17,K103N/Y181C,MTT,,56 µM
CCC(C)[C@@H](C(=O)N[C@@H](Cc1ccccc1)[C@H](O)CN(CC1CCCC1)S(=O)(=O)c1ccc(/C=N/O)cc1)N1CCN(Cc2cccc(COC)n2)C1=O,A17 (LPV-resistant),PR-L10F V32I M46I I47V Q68E I84V,cytopathic effect / MTT,,0.001 µM
CC1(C)CC=C(c2cn(-c3nccc(C(=O)NC4CCC(N5CC6CCC(C5)O6)CC4)n3)c3ccc(F)c([C@H](OC(C)(C)C)C(=O)O)c23)CC1,NL4-3,N155H,luminescence,,0.0047 µM
CCc1c(Cc2ccccc2C)n(COCC#Cc2cccc3ccccc23)c(=O)[nH]c1=O,IIIB,K103N + Y181C,MTT,,>34 µM
Cc1nc2c(c(C)c(C)n2CC2CC2)c(-c2cc(F)c3c(c2C)CCCO3)c1[C@H](OC(C)(C)C)C(=O)O,IIIB,,MTT,,0.00668 µM
CC(C)CN(C[C@@H](O)[C@H](Cc1ccccc1)NC(=O)O[C@H]1CO[C@H]2OCC[C@H]21)S(=O)(=O)c1ccc2ncn(Cc3ccncc3)c2c1,LAI WT,,cytopathic effect / MTT,,0.032 µM
Cc1nc2[nH]c(C)c(C)c2c(-c2ccc(Cl)cc2)c1C(OC(C)(C)C)C(=O)O,IIIB,,MTT,,0.399 µM
CC(C)CN(C[C@@H](O)[C@H](Cc1ccccc1)NC(=O)OC1COC2OCCC12)S(=O)(=O)c1ccc2nc[nH]c2c1,LAI WT,,cytopathic effect / MTT,,0.126 µM
Cc1cc(/C=C/C#N)cc(C)c1Oc1nc(NC2CCN(Cc3cccc(Cl)c3)CC2)nc2ccsc12,IIIB,NNRTI-resistant (RT E138K),MTT,,0.131 µM
CCCc1nc(-c2ccc(N3C(=O)C=CC4C3c3ccccc3N4C)cc2)no1,LAI,,cytopathic effect / MTT,,1–32 µM
CCc1c(Cc2ccccc2)n(COCCCc2ccccc2)c(=O)[nH]c1=O,N119,Y181C,MTT,,>23 µM

Repeating the final 3 entries:

Cc1cc(/C=C/C#N)cc(C)c1Oc1nc(NC2CCN(Cc3cccc(Cl)c3)CC2)nc2ccsc12 ; strain: IIIB ; changes: NNRTI-resistant (RT E138K) ; method: MTT ; value: 0.131 µM
CCCc1nc(-c2ccc(N3C(=O)C=CC4C3c3ccccc3N4C)cc2)no1 ; strain: LAI ; method: cytopathic effect / MTT ; value: 1–32 µM
CCc1c(Cc2ccccc2)n(COCCCc2ccccc2)c(=O)[nH]c1=O ; strain: N119 ; changes: Y181C ; method: MTT ; value: >23 µM

Two numbers with a dash give a range or band. ECn: concentration that inhibits the pathogen or its effect by n%. An empty or dashed field is not shown.